Usually pKd stands for −log10 of the Kd, conventionally taken in molar units.

The source of these data is PMC2742733, “Bacillus anthracis Lethal Toxin Disrupts TCR Signaling in CD1d-Restricted NKT Cells Leading to Functional Anergy” (2009).

This assay has as its target specific receptors for PA on NKT cells (mouse (endogenous in C57BL/6 NKT cells)). The experiment in a line: flow cytometry on cells.

pKd: −log10 of the molar value.

Substance “Alexa 647-conjugated protective antigen (PA) of Bacillus anthracis (from UniProt P13423) (natural protein)” gave a pKd of 7.70.
